From patent publication US7566530B2 (priority 2004, dated 2009)

Test system: PrP^res
Assay: Detection of PrP^res in bovine brain by Western blotting after treatment with calixarene C6S and streptomycin
Settings: FIG. 7

Compound | detection of PrP^res (calixarene C6S (1 μl of 0.1M) used together with streptomycin, versus untreated or calixarene alone) | sensitivity of PrP^res detection versus amount of streptomycin (20 μl streptomycin sulfate 5%, 10%, 20%, after calixarene C6S)
p-sulfonato-3,7-(2-amino-ethyloxy)calix-[6]-arene | improved | –
[H]/N=C(/N)N[C@H]1[C@H](O)[C@@H](O)[C@H](O[C@@H]2O[C@@H](C)[C@](O)(C=O)[C@H]2O[C@@H]2O[C@@H](CO)[C@H](O)[C@@H](O)[C@@H]2NC)[C@@H](N/C(N)=N\[H])[C@@H]1O [streptomycin] | – | the sensitivity of this method increases with the amount of streptomycin used
